In patent US20250066456A1 (NOVAVAX, published 2025):
Where two headings read alike, the source gives them in different places.

How the values were obtained:
[1] = biological target: rS D614G (Wuhan); assay: ELISA, plate coated with rS, serial dilution of the mAb, anti-mouse HRP, A450
[2] = biological target: rS D614G (Wuhan); assay: as above; remark: listed apart in the source

B1: 425.6 (antibody, V domains shown)
VH: VQLKQSGPSLVQPSQSLSITCTVSGFSLTSYGIHWVRQSPGKGLEWLGVIWRGGSTDYNAAFMSRLTITKDNSKSQVFFKMNSLQADDTAIYYCATHTEGDDVDYWGQGTSVTVSS
VL: QIVLTQSPAIMSVSPGEKVTMTCSASSTMSFMYWYQQKPGSSPRLLIYDTSNLASGVPVRFSGSGSGTSYSLTISRVEAEDAATYYCQQWNTYPLTFGAGTKLELKR
B1 was tested, and the EC50 [1] was 0.01 µg/mL.

B2: 322.3 (antibody, V domains shown)
VH: RVQLQQSGPELVKPGASVTISCKASGYIFTSDYIHWVKQRPGQGPEWIGWIYPGNINTKYNEKFKGKATLTADKSSSTAYMQLSSLTSEDSAVYFCARDDGNLYYYAMDYWGQGTSVTVSS
VL: NIVLTQSPASLAVSLGQRATISCRASESVDSYGSSFMHWYQQKPGQPPKLLIYLASNLESGVPARFSGSGSRTDFTLTIDPVEADDAATYYCQQNNEDPRTFGGGTKLEIK
Binder B2 has an EC50 [2] of 0.029 µg/mL.
